PubChem BioAssay AID504761 | Drosophila RNAi Screening Center – 2011
The screen tested about 22,000 reagents; shown is an unselected part of those with a known target gene and a result. In the full data, 116 (0.52%) got an active call. 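Calls depend on retest data that are not deposited; infection was ranked per plate without normalising between plates; the unit of the infection score is not given.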 Raw values are not corrected between plates. A number with no mark means an inactive call. A plus sign joins genes that one reagent is predicted to hit. The record does not give: the amount of reagent, the time to read-out.

- Screen: 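Insect host genes that dengue virus relies on to spread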 (primary screen)
- Cells: D.Mel-2 cells from Drosophila
- Reagent: long dsRNA against Drosophila genes
- Conditions: infection with dengue virus type 2; dose and infection time not stated
- Measurement: 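Cells stained for dengue envelope protein and imaged; percent of infected cells per well on duplicate plates, ranked by infection, with stained nuclei counted for cell number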
- Direction: infection score: higher = more virus-infected cells; cell count: higher = more cells in the well
- Call rule: 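Low infection ranks in the two replicates (chance level up to 0.065) followed by a retest with a 1.5-fold or larger significant decrease, p below 0.05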
- Calls: active = confirmed: knock-down lowers infection; inactive = not picked or not confirmed

The first 5 records as a preview:
predicted target | dsRNA | infection score, replicate 1 | infection score, replicate 2 | cell count, replicate 1 | cell count, replicate 2
sle + CG12592 | DRSC21387 | 2.23 | 5.63 | 5923 | 6589
sle + CG12592 | DRSC27126 | 3.4 | 9.45 | 6260 | 6257
lncRNA:roX1 | DRSC21884 | 14.9 | – | 4091 | –
CG13436 | DRSC06396 | 1.74 | 3.39 | 6041 | 6483
CG5326 | DRSC13568 | 2.17 | 1.62 | 6173 | 5492

Results, from the start:
predicted target | dsRNA | infection score, replicate 1 | infection score, replicate 2 | cell count, replicate 1 | cell count, replicate 2
sle + CG12592 | DRSC21387 | 2.23 | 5.63 | 5923 | 6589
sle + CG12592 | DRSC27126 | 3.4 | 9.45 | 6260 | 6257
lncRNA:roX1 | DRSC21884 | 14.9 | – | 4091 | –
CG13436 | DRSC06396 | 1.74 | 3.39 | 6041 | 6483
CG5326 | DRSC13568 | 2.17 | 1.62 | 6173 | 5492
CG5326 | DRSC15770 | 1.54 | 7.6 | 6756 | 6616
CG5326 | DRSC23719 | 0.69 | 0.61 | 6240 | 6182
CG6216 | DRSC10606 | 4.71 | 1.4 | 5454 | 6433
CG6216 | DRSC28352 | 17.1 | 16.5 | 6347 | 3614
Obp83b | DRSC12360 | 2.32 | 4.32 | 6634 | 6511
Obp83b | DRSC25688 | 5.72 | 0.79 | 6117 | 6357
Tb | DRSC15815 | – | – | 328 | 361
Tb | DRSC23554 | 5.16 | 9.79 | 6187 | 5866
Vha100-4 | DRSC16282 | 3.33 | 9.11 | 6661 | 6553
Vha100-4 | DRSC26139 | 5.43 | 0.58 | 6707 | 5905
CG7695 | DRSC16289 | 3.58 | 7.18 | 6476 | 6223
CG5861 | DRSC02907 | 4.98 | 11 | 1585 | 5074
CG5815 | DRSC14135 | 22.1 | 6.88 | 4230 | 6964
CG5815 | DRSC27943 | 11.5 | 22.7 | 5697 | 5441
Pde1c | DRSC02421 | 5.02 | 4.61 | 6097 | 6231
Pde1c | DRSC02422 | 11.3 | 6.53 | 5893 | 6033
Pde1c | DRSC02423 | 17.3 | 19.9 | 3944 | 5353
Pde1c | DRSC02424 | 22.5 | 20.8 | 5520 | 4668
Pde1c | DRSC02425 | 3.55 | 2.13 | 6611 | 6707
Pde1c | DRSC02426 | 4.41 | 5.37 | 6597 | 6595
Pde1c | DRSC28161 | 4.78 | 15.5 | 6627 | 5793
Bace | DRSC02197 | 3.75 | 3.8 | 6941 | 6839
Bace | DRSC28723 | 4.8 | – | 812 | 322
Exo70 | DRSC10774 | 2.59 | 3.29 | 5635 | 6295
Snap25 | DRSC21228 | 9.45 | 2.49 | 6299 | 6275
Snap25 | DRSC21236 | 2.29 | 3.06 | 6856 | 5913
Bap111 | DRSC18419 | 2.76 | 1.46 | 6489 | 6798
Bap111 | DRSC28822 | 7.01 | 15.2 | 984 | 2303
Socs44A | DRSC06828 | 8.05 | 21.3 | 6537 | 5756
Mhc | DRSC03367 | 4.31 | 1.14 | 6213 | 6574
Mhc | DRSC25959 | 12.6 | 1.86 | 6251 | 6340
Tsp97E | DRSC16019 | 2.04 | 9.57 | 6970 | 6207
Tsp97E | DRSC28053 | 21.8 | 15.3 | 4527 | 4119
Sid | DRSC16588 | 2.24 | 1.88 | 6245 | 6762
Sid | DRSC26318 | 21.3 | 7.54 | 5168 | 6126
